This is a selection; strong and weak results do not stand in their true shares. Active and inactive are the calls of the source.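 The calls were made as follows: active = inhibition above about 50% in both repeat tests (limit read from the data); inconclusive = one repeat under the set limit, the other over it; inactive = both repeats under the set limit.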

The text below walks through data of PubChem BioAssay AID1258 (University of Pittsburgh Molecular Library Screening Center, 2008).

The test is described as follows: Leishmania major promastigote growth inhibition, confirmation, 1 µM repeat of primary hits (AID 1258). Conditions: L. major promastigote growth, resazurin fluorescence, 48 h; at 1 µM; active compounds read high. The gist of the method:
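Material: Leishmania major promastigote parasites; amount: 5,000 promastigotes/well; buffer or medium: M199, 10% heat-inactivated FBS; compound dosing: single dose of 1 µM per compound, retest of primary hits; times: 44 h compound exposure plus 4 h dye step, both 28 °C; read-out basis: parasite viability inhibition versus plate controls; benchmarks: DMSO MAX/MIN, tamoxifen reference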
For orientation: Alamar Blue is a resazurin reagent that responds to reducing activity.
As to `O=[N+]([O-])c1cc([N+](=O)[O-])c(-c2ccn[nH]2)s1`, the inhibition (commonly the drop in the measured response relative to a control, in per cent) was active: 66.1%.
